# Source: publication PMC7986981 (ACS Pharmacology & Translational Science, 2021)
# Target: SARS-CoV-2 3CL-Pro (Severe acute respiratory syndrome coronavirus 2, UniProt P0DTD1)
# Conditions: read-out: HP 3CL-Pro IC50
substance,measurement,value
zinc pyrithione,IC50,100 nM
